{"source": "paper PMC10983001", "about": "“Development of Cytotoxic GW7604-Zeise’s Salt Conjugates as Multitarget Compounds with Selectivity for Estrogen Receptor- Positive Tumor Cells” (Journal of Medicinal Chemistry, 2024)", "key": {"[1]": {"system": "MCF-7 cells", "test": "Real-time live confocal microscopy, MCF-7", "type": "cell-based, human", "settings": "MCF-7, 20 μM"}, "[2]": {"system": "SKBr3 cells", "test": "Real-time live confocal microscopy, SKBr3", "type": "cell-based, human", "settings": "SKBr3, 20 μM"}}}
{"smiles": "C=CCCCOC(=O)/C=C/c1ccc(C(=C(CC)c2ccccc2)c2ccc(O)cc2)cc1", "note": "(mixture of isomers) [GW7604-Pent, Pent-4-en-1-yl (E)-3-(4-((E/Z)-1-(4-hydroxyphenyl)-2-phenylbut-1-en-1-yl)phenyl) Acrylate]", "values": [{"measurement": "intracellular fluorescence / vesicles", "setting": "[1]", "result": "did not cause compound-dependent intracellular fluorescence"}, {"measurement": "intracellular fluorescence / vesicles", "setting": "[2]", "result": "did not cause compound-dependent intracellular fluorescence"}]}
